Measured values from several laboratories, pooled; numbers as filed in NIAID ChemDB.

Shared fields: tests on isolated targets; agent: HIV-1; protein: Reverse transcriptase

Blank or dashed fields: not listed here.

smiles | changes | strain or isolate | endpoint | read by | result
CC(C)(C)c1ccc(-n2nnnc2SCC(=O)Nc2ccc(OCC(=O)Nc3cccc(C(=O)O)c3)cc2Cl)c(Cl)c1 | RT-K103 Y181C | - | IC50 | PicoGreen / fluorescence | <1 µM
CC(=O)Nc1cc2c(cc1OC(F)(F)F)CCN(c1nn3c(C)nnc3c3ccccc13)C2 | - | KER2008 | IC50 | RT activity / fluorescence | 0.63 µM
O=C(COCC(=O)Nc1ccc(Br)cc1C(=O)O)Nc1ccc(Br)cc1C(=O)O | - | - | IC50 | - | >100 µg/mL
COc1ccc(Br)cc1CCNC(=S)Nc1nccs1 | - | - | IC50 | nucleotide incorporation | 0.003 µM
CCN1c2ncc(CCOc3ccc(-c4ncccn4)cc3)cc2C(=O)N(C)c2cccnc21 | - | IIIB | IC50 | nucleotide incorporation / radiometric | <0.05 µM
CC(C)(C)c1ccc(-n2nnnc2SCC(=O)Nc2ccc(NS(=O)(=O)Cc3ccccc3)cc2Cl)c(Cl)c1 | RT-K103 Y181C | - | IC50 | PicoGreen / fluorescence | <1 µM
NS(=O)(=O)c1ccc(NC(=O)c2ccc(SSc3ccc(C(=O)Nc4ccc(S(N)(=O)=O)cc4)cc3)cc2)cc1 | - | - | IC50 | - | >100 µM
CC(C)(C)c1ccc(-n2nnnc2SCC(=O)Nc2ccc(OCC(=O)NCCc3ccncc3)cc2Cl)c(Cl)c1 | - | WT | IC50 | PicoGreen / fluorescence | <1 µM
CCN1c2ncc(CCOc3ccc(-c4cc[n+]([O-])c(C)c4)cc3C)cc2C(=O)N(C)c2cccnc21 | - | IIIB | IC50 | nucleotide incorporation / radiometric | <0.05 µM
CC(=O)Nc1ccc(SSc2ccc(NC(C)=O)cc2C(N)=O)c(C(N)=O)c1 | - | - | IC50 | - | >100 µM
O=C(O)CCC(CCC(=O)O)(CCC(=O)O)NC(=O)CCC(CCC(=O)NC(CCC(=O)O)(CCC(=O)O)CCC(=O)O)(CCC(=O)NC(CCC(=O)O)(CCC(=O)O)CCC(=O)O)NC(=O)CCCOC(=O)C1(C(=O)OCCCC(=O)NC(CCC(=O)NC(CCC(=O)O)(CCC(=O)O)CCC(=O)O)(CCC(=O)NC(CCC(=O)O)(CCC(=O)O)CCC(=O)O)CCC(=O)NC(CCC(=O)O)(CCC(=O)O)CCC(=O)O)C2c3cc4c5c6c3-c3c(cc7c8c3C6C3c6c-5c(cc5ccc9cc(c-8c3c9c65)C7)C4)C21 | - | - | IC50 | - | 0.89 µM
CC(C)(C)c1ccc(-n2nnnc2SCC(=O)Nc2ccc(C(=O)NC3CC3)cc2Cl)c(Cl)c1 | - | WT | IC50 | PicoGreen / fluorescence | <1 µM
CCCCCCCCCCCCNC(=O)Nc1c(O)c2ccc(O[C@@H]3OC(C)(C)[C@H](CO)[C@@H](OC(N)=O)[C@H]3O)c(C)c2oc1=O | - | - | IC50 | radiometric | 60 µM
CCN1c2ncc(CCOc3cccc4c3ccc[n+]4[O-])cc2C(=O)N(C)c2ccc(Cl)nc21 | RT-K103N Y181C | - | IC50 | nucleotide incorporation / radiometric | 0.051 µM
COC(=O)NS(=O)(=O)c1ccc(NC(=O)CSc2nnnn2-c2ccc(C3CC3)cc2Cl)c(Cl)c1 | RT-K103 Y181C | - | IC50 | PicoGreen / fluorescence | <1 µM
CCNc1cccnc1N1CCN(C(=O)c2cc3ccccc3[nH]2)CC1 | - | IIIB | IC50 | - | 0.85 µM
O=C1Nc2ccc(Cl)cc2C(C#CC2CCCCC2)(C(F)(F)F)O1 | RT-K103N Y181C | A17 | IC50 | nucleotide incorporation | 0.21 µM
CN(C)CC(=O)NC(C)(C)C#Cc1ccc(NC(=O)CSc2nnnn2-c2ccc(C3CC3)cc2Cl)c(Cl)c1F | - | WT | IC50 | PicoGreen / fluorescence | <1 µM
CCN1c2ncc(CCOc3ccc(-c4ccc(CC(=O)O)cc4)cc3CO)cc2C(=O)N(C)c2cccnc21 | RT-K103N Y181C | IIIB | IC50 | nucleotide incorporation / radiometric | <0.05 µM
CC(C)(C#Cc1ccc(NC(=O)CSc2nnnn2-c2ccc(C3CC3)cc2Cl)c(Cl)c1)NCc1cnc[nH]1 | - | WT | IC50 | PicoGreen / fluorescence | <1 µM
C=C1CCC[C@H]2[C@](C)(CC3=C(OC)C(=O)C=C(OC)C3=O)[C@@H](C)CC[C@]12C | - | - | IC50 | nucleotide incorporation | 35 µM
O=C(CCCCC(=O)Nc1ccc(Br)cc1C(=O)O)Nc1ccccc1 | - | - | IC50 | - | >100 µg/mL
CC(C)[C@H](NC(=O)c1ccccc1)C(=O)N/N=C/c1c(F)cccc1Cl | - | - | IC50 | RT activity | 79.5 µM
CC(C)(C#Cc1ccc(NC(=O)CSc2nnnn2-c2ccc(C3CC3)cc2Cl)c(Cl)c1)NC(=O)C1CC1 | - | WT | IC50 | PicoGreen / fluorescence | <1 µM
CCCCC#CC1(C(F)(F)F)OC(=O)Nc2ccc([N+](=O)[O-])cc21 | - | - | IC50 | - | 0.304 µM
CN(CC(N)=O)c1ccc2c(COc3ccc(Cl)c(Oc4cc(Cl)cc(C#N)c4)c3)[nH]nc2n1 | - | - | IC50 | nucleotide incorporation / radiometric | <20 µM
O=C1NCC(CCC2(C(F)(F)F)OC(=O)Nc3ccc(Cl)cc32)O1 | - | - | IC50 | nucleotide incorporation | 1.9 µM
CC(C)(C#Cc1ccc(NC(=O)CSc2nnnn2-c2ccc(C3CC3)cc2Cl)c(Cl)c1)OCCN1CCCC1=O | - | WT | IC50 | PicoGreen / fluorescence | <1 µM
Cc1cc(=O)c2c(O)c3c(O)cc(O)c4c5c(O)cc(O)c6c(O)c7c(=O)cc(C)c8c1c2c(c34)c(c65)c78 | - | - | IC50 | RT activity | 108 µg/mL
CC(C)(C)c1ccc(-n2nnnc2SCC(=O)Nc2ccc(NC(=O)Cc3ccc([N+](=O)[O-])cc3)cc2Cl)c(Cl)c1 | - | WT | IC50 | PicoGreen / fluorescence | <1 µM
CC(C)(O/N=C(/C(=O)NCC=O)c1csc(N)n1)C(=O)O | - | - | IC50 | nucleotide incorporation / radiometric | >100 µg/mL
C=C(C)C1C=C[C@@H](OC(=O)c2cccnc2)C23COC(C)(C(=O)[C@@]4(OC(C)=O)C[C@H](C)[C@H](OC(=O)CCC)C4[C@H]2OC(=O)CC)C13 | - | - | IC50 | nucleotide incorporation | 79.9 µg/mL
N#Cc1cc(Cl)cc(Oc2cc(OCc3[nH]nc4nc(N)ccc34)cc(F)c2Cl)c1 | - | - | IC50 | nucleotide incorporation / radiometric | <20 µM
Cc1ccc(-c2c(SCC(=O)Nc3ccc(-c4ccc(CC(=O)O)cc4)cc3Cl)cnn2C)c(Cl)c1 | - | WT | IC50 | PicoGreen / fluorescence | <1 µM
NS(=O)(=O)c1ccc(NC(=O)COc2cccc(Oc3ccccc3)c2)c(Cl)c1 | - | - | IC50 | nucleotide incorporation / radiometric | <20 µM
CN(CC(=O)Nc1ccc(Br)cc1C(=O)O)CC(=O)Nc1ccc(Br)cc1C(=O)O | - | - | IC50 | - | >100 µg/mL
CCN1c2ncc(CCOc3ccc(-c4ccc(C(=O)O)cc4)cc3F)cc2C(=O)N(C)c2cccnc21 | RT-K103N Y181C | IIIB | IC50 | nucleotide incorporation / radiometric | >0.1 µM
CCCC#CC1(C(F)(F)F)OC(=O)Nc2cccc(F)c21 | - | - | IC50 | - | 0.127 µM
CCN1c2ncc(CCOc3ccc(NC(=O)c4ccc(C(=O)O)cn4)cc3C)cc2C(=O)N(C)c2cccnc21 | RT-K103N Y181C | IIIB | IC50 | nucleotide incorporation / radiometric | <0.05 µM
N#Cc1cc(Cl)cc(Oc2cc(F)c(Cl)c(OCc3[nH]nc4ncccc34)c2)c1 | - | - | IC50 | nucleotide incorporation / radiometric | <20 µM
CNC(=O)c1ccc(NC(=O)CSc2nnnn2-c2ccc(C)cc2Cl)c(Cl)c1 | - | WT | IC50 | PicoGreen / fluorescence | <1 µM
COc1cc2c(cc1N)CN(c1nn3c(C4CC4)nnc3c3ccccc13)CC2 | - | IIIB | IC90 | RT activity / fluorescence | 9.25 µM
Nc1ccn([C@@H]2O[C@H](COP(=O)(O)O[C@@H]3[C@H](O)[C@@H](COP(=O)(O)O[C@@H]4[C@H](O)[C@@H](COP(=O)(O)OP(=O)(O)O)O[C@H]4n4ccc(N)nc4=O)O[C@H]3n3ccc(N)nc3=O)[C@@H](O)[C@H]2O)c(=O)n1 | - | - | IC50 | nucleotide incorporation / radiometric | 75 µM
COc1cc(/C=C/C(=O)OC[C@H]2O[C@@H](Oc3c(-c4ccc(O)c(O)c4)oc4cc(O)cc(O)c4c3=O)[C@H](O)[C@@H](O)[C@H]2O)ccc1O | - | - | IC50 | nucleotide incorporation / radiometric | 25.62 µg/mL
CCN1c2ncc(CCOc3ccc(-c4ccc(C(=O)O)s4)cc3C)cc2C(=O)N(C)c2cccnc21 | - | IIIB | IC50 | nucleotide incorporation / radiometric | <0.05 µM
Cc1ccc(-n2nnnc2SCC(=O)Nc2ccc(-c3ccc(CC(N)=O)cc3)cc2[N+](=O)[O-])c(Cl)c1 | RT-K103 Y181C | - | IC50 | PicoGreen / fluorescence | <1 µM
FC(F)c1nnc2c3ccccc3c(N3CCc4ccccc4C3)nn12 | - | 98US_MSC5016 | IC50 | RT activity / fluorescence | 0.28 µM
N#Cc1cc(Cl)cc(Oc2cc(F)cc(OCc3[nH]nc4nc(N)ccc34)c2)c1 | - | - | IC50 | nucleotide incorporation / radiometric | <20 µM
COc1ccc(-c2ccc(NC(=O)CSc3nnnn3-c3ccc(C)cc3Cl)c(Cl)c2)cc1 | RT-K103 Y181C | - | IC50 | PicoGreen / fluorescence | <1 µM
C=CC1(C(F)(F)F)OC(=O)Nc2ccc(Cl)cc21 | RT-K103N Y181C | A17 | IC50 | nucleotide incorporation | 30 µM
CS(=O)(=O)Nc1ccc2c(c1)CN(c1nn3c(C4CC4)nnc3c3ccccc13)CC2 | - | IIIB | IC50 | RT activity / fluorescence | 0.62 µM
CCN1c2ncc(CCOc3ccc(-c4ccc(Cl)c(CC(=O)O)c4)cc3C)cc2C(=O)N(C)c2cccnc21 | - | IIIB | IC50 | nucleotide incorporation / radiometric | <0.05 µM
CC(C)(N)C#Cc1ccc(NC(=O)CSc2nnnn2-c2cc(C(F)(F)F)cc(C3CC3)c2Cl)c(Cl)c1F | RT-K103 Y181C | - | IC50 | PicoGreen / fluorescence | <1 µM
CCN1c2ncc(CCOc3ccc(C(=O)Nc4ccc[n+]([O-])c4)cc3C)cc2C(=O)Nc2c(C)ccnc21 | - | IIIB | IC50 | nucleotide incorporation / radiometric | <0.05 µM
Cc1cc(-n2nnnc2SCC(=O)Nc2ccc(C#CC(C)(C)O)cc2Cl)c(Cl)c(C(F)(F)F)c1 | RT-K103 Y181C | - | IC50 | PicoGreen / fluorescence | <1 µM
N#Cc1cc(Cl)cc(Oc2cc(OCc3nc4cccc(Cl)c4o3)ccc2Cl)c1 | - | - | IC50 | nucleotide incorporation / radiometric | <20 µM
CN(C)c1ccc(NC(=O)COc2ccc(NC(=O)CSc3nnnn3-c3ccc(C(C)(C)C)cc3Cl)c(Cl)c2)cc1 | - | WT | IC50 | PicoGreen / fluorescence | <1 µM
C=C(C)C1C=C[C@@H](OC(=O)c2cccnc2)C23COC(C)(C(=O)[C@@]4(OC(C)=O)C[C@H](C)[C@H](OC(=O)CC)C4[C@H]2OC(=O)CC)C13 | - | - | IC50 | nucleotide incorporation | ~200 µg/mL
O=C(O)Cc1ccc(-c2ccc(NC(=O)CSc3nnnn3-c3ccc(C4CC4)cc3Cl)c(Cl)c2)cc1 | - | WT | IC50 | PicoGreen / fluorescence | <1 µM
Nc1ccn([C@@H]2O[C@H](COP(=O)(O)O[C@@H]3[C@H](O)[C@@H](COP(=O)(O)O[C@@H]4[C@H](O)[C@@H](COP(=O)(O)O[C@@H]5[C@H](O)[C@@H](COP(=O)(O)O)O[C@H]5n5ccc(N)nc5=O)O[C@H]4n4ccc(N)nc4=O)O[C@H]3n3ccc(N)nc3=O)[C@@H](O)[C@H]2O)c(=O)n1 | - | - | IC50 | nucleotide incorporation / radiometric | 118 µM
CC(C)Nc1cccnc1N1CCN(C(=O)c2cc3ccccc3[nH]2)CC1 | - | IIIB | IC50 | - | 0.25 µM
CC(C)(C)c1ccc(-n2nnnc2SCC(=O)Nc2ccc(C(=O)Nc3ccc(CCC(=O)O)cc3)cc2Cl)c(Cl)c1 | RT-K103 Y181C | - | IC50 | PicoGreen / fluorescence | <1 µM

A second listing of 6 rows from above:

{"smiles": "O=C1Nc2ccc(Cl)cc2C(C#CC2CCCCC2)(C(F)(F)F)O1", "changes": "RT-K103N Y181C", "strain or isolate": "A17", "endpoint": "IC50", "read by": "nucleotide incorporation", "result": "0.21 µM"}
{"smiles": "CCN1c2ncc(CCOc3cccc4c3ccc[n+]4[O-])cc2C(=O)N(C)c2ccc(Cl)nc21", "changes": "RT-K103N Y181C", "endpoint": "IC50", "read by": "nucleotide incorporation / radiometric", "result": "0.051 µM"}
{"smiles": "CCN1c2ncc(CCOc3ccc(C(=O)Nc4ccc[n+]([O-])c4)cc3C)cc2C(=O)Nc2c(C)ccnc21", "strain or isolate": "IIIB", "endpoint": "IC50", "read by": "nucleotide incorporation / radiometric", "result": "<0.05 µM"}
{"smiles": "Cc1ccc(-n2nnnc2SCC(=O)Nc2ccc(-c3ccc(CC(N)=O)cc3)cc2[N+](=O)[O-])c(Cl)c1", "changes": "RT-K103 Y181C", "endpoint": "IC50", "read by": "PicoGreen / fluorescence", "result": "<1 µM"}
{"smiles": "CC(C)(C#Cc1ccc(NC(=O)CSc2nnnn2-c2ccc(C3CC3)cc2Cl)c(Cl)c1)OCCN1CCCC1=O", "strain or isolate": "WT", "endpoint": "IC50", "read by": "PicoGreen / fluorescence", "result": "<1 µM"}
{"smiles": "CC(C)(C)c1ccc(-n2nnnc2SCC(=O)Nc2ccc(C(=O)Nc3ccc(CCC(=O)O)cc3)cc2Cl)c(Cl)c1", "changes": "RT-K103 Y181C", "endpoint": "IC50", "read by": "PicoGreen / fluorescence", "result": "<1 µM"}

ICn is the concentration giving n% inhibition. Lines come from different laboratories, so protocols vary.